{
  "source": "patent US6663881B2",
  "about": "(priority 1993, dated 2003)",
  "key": {"[1]": {"test_system": "A375 marker-positive cells", "assay": "Protein synthesis (3H-leucine incorporation) after 5 minute pulse", "format": "cell-based, human", "conditions": "short-term"}, "[2]": {"test_system": "HT29 marker-negative cells", "assay": "Protein synthesis (3H-leucine incorporation) after 5 minute pulse", "format": "cell-based"}},
  "data": [
    {"substance": "Roridin A", "values": [
      {"measurement": "inhibition of cellular protein synthesis", "setting": "[1]", "value": "non-specifically inhibitory"},
      {"measurement": "inhibition of cellular protein synthesis", "setting": "[2]; long-term (16-18 hours recovery)", "value": "still manifest after the 16-18 hours recovery period"},
      {"measurement": "inhibition of cellular protein synthesis", "setting": "[2]; short-term (4 h 3H-leucine immediately after)", "value": "dose-response inhibition"}
    ]}
  ]
}
